Results of unrelated studies side by side (data: NIAID ChemDB).

Shared fields: growth or infection tests; agent: Hepatitis C virus

Lines come from different laboratories, so protocols vary.

SMILES,tested at,strain,cell line,conditions,mutations,measure,method,result
CC1CCC(C(=O)N(c2cc(C#CC(C)(C)C)sc2C(=O)O)C2CCC(O)CC2)CC1,,Con1 (gt 1b),Huh7,,A486T,fold resistance,luciferase,55.7
C=CCNC(=O)C(=O)C(CCCC)NC(=O)[C@@H]1C2[C@H](CN1C(=O)[C@@H](NC(=O)N[C@H](C(=O)OC(C)(C)C)C(C)(C)C)C(C)(C)C)C2(C)C,,,,,,EC90,replicon,0.1 µM
NC(=S)Nc1cccc(OCCCCCOc2ccccc2-c2ccc(F)cc2)c1,,,Ava5-EG(delta4AB)SEAP,,,EC50,reporter gene / fluorescence,0.001–1 µM
COC(=O)N[C@H](C(=O)N1CCCC1c1ncc(-c2ccc(-c3ccc(-c4cnc([C@@H]5CC(C)CN5C(=O)[C@@H](NC(=O)CO)C(C)C)[nH]4)cc3)cc2)[nH]1)C(C)C,,1a,Lunet,,M28T,EC50,luciferase,0.0025 µM
CN(C)c1ccc(/C=N/Nc2nc(-c3ccc(F)cc3)cs2)cc1,,,Huh7 ET,,,EC90,luciferase / reporter gene / replicon,>20 µM
CC1(C)CC(=O)C2=C(C1)Nc1c(O)cccc1N(C(=O)C1COc3ccccc3O1)C2c1ccc(OCc2ccccc2)cc1F,,1b,,,,EC50,luciferase / reporter gene / replicon,1.13 µM
CC1(C)CC[C@@]2(C(=O)NCCCCCCNC(=O)[C@]34CCC(C)(C)CC3C3=CCC5[C@@]6(C)CC[C@H](O)C(C)(C)C6CC[C@@]5(C)[C@]3(C)C[C@H]4O)C(C1)C1=CCC3[C@@]4(C)CC[C@H](O)C(C)(C)C4CC[C@@]3(C)[C@]1(C)C[C@H]2O,5 µM,,Huh7,,,inhibition,luciferase / entry,72.2%
CCCC(NC(=O)[C@@H]1[C@@H]2[C@H](CN1C(=O)[C@@H](NC(=O)OC(C)(C)C)C(C)(C)C)C2(C)C)C(=O)C(=O)NCC(=O)N[C@H](C(=O)N(C)C)c1ccccc1,,,,,,EC90,replicon,0.25 µM
NC(=S)Nc1cccc(OCCCCCCCOc2ccccc2)c1,,,Ava5-EG(delta4AB)SEAP,,,EC50,reporter gene / fluorescence,0.001–1 µM
CC1(C)CC(=O)C2=C(C1)Nc1c(O)cccc1NC2c1ccc(OCc2cccc(Br)c2)cc1Cl,,1b,,,,EC50,luciferase / reporter gene / replicon,3.29 µM
CC(C)(C)C(=O)OCOP(=O)(CC[C@H]1O[C@@H](n2cnc3c(N)ncnc32)[C@](C)(F)[C@@H]1O)OCOC(=O)C(C)(C)C,,,Huh7,,,EC90,PCR,>10 µM
O=C1N/C(=N\c2nnc(-c3ccc(Cl)cc3)s2)S/C1=C\c1ccccc1Cl,100 µM,,Huh7/Rep-Feo1b,,,inhibition,MTS,0%
COc1ccc(OCCCCCOc2cccc(NC(N)=S)c2)c(Cl)c1,,,Ava5-EG(delta4AB)SEAP,,,EC50,reporter gene / fluorescence,0.001–1 µM
COc1cc(CN2CCC(C(=O)Nc3ccc(-c4cccc(C)c4)cc3)CC2)ccc1O,15 µM,JFH-1,Huh7,,,inhibition,PCR,≥40%
NC(=S)Nc1ccc2c(c1)Cc1cc(Br)ccc1-2,,,Ava5-EG(delta4AB)SEAP,,,EC50,reporter gene / fluorescence,0.001–1 µM
O=C(N[C@@H](C(=O)N1CCC[C@H]1c1ncc(-c2ccc(-c3ccc(-c4cnc([C@@H]5CCCN5C(=O)[C@H](NC(=O)C5CC5)c5ccccc5)s4)cc3)cc2)s1)c1ccccc1)C1CC1,,genotype 1b,Huh7.5,,Y93C,fold resistance,luciferase / reporter gene,52
CCN1CCC(C(=O)Nc2ccc(Oc3ccccc3F)cc2)CC1,5 µM,JFH-1,Huh7,,,inhibition,PCR,≥40%
CC1CCCC1OC(=O)[C@@H](NC(=O)N[C@H](C(=O)N1C[C@H]2C([C@H]1C(=O)NC(CC1CC1)C(=O)C(N)=O)C2(C)C)C(C)(C)C)C(C)(C)C,,,,,,EC90,replicon,1.3 µM
CC1(C)CC(=O)C2=C(C1)Nc1c(O)cccc1N(C(=O)CCC(=O)O)[C@H]2c1ccc(OCc2ccccc2)cc1Cl,,1b,,,,EC50,luciferase / reporter gene / replicon,52.82 µM
C=C(C)[C@@H]1CC[C@]2(C(=O)O)CC[C@]3(C)[C@H](CC[C@@H]4[C@@]5(C)CC[C@H](O)C(C)(C)[C@@H]5CC[C@]43C)[C@@H]12,1 µM,,Huh7,pseudotyped,,inhibition,luciferase / entry,-2%
CC(C)C(NC(=O)N[C@H](C(=O)N1C[C@H]2C([C@H]1C(=O)NC(CC1CC1)C(=O)C(=O)NCCc1ccccc1)C2(C)C)C(C)(C)C)C(=O)O,,,,,,EC90,replicon,20 µM
COc1cccc(-c2ccccc2NC(=O)C2CCN(CCC(C)c3ccccc3)CC2)c1,15 µM,JFH-1,Huh7,,,inhibition,PCR,≥40%
CCC(C)C(NC(=O)N[C@H](C(=O)N1C[C@H]2C([C@H]1C(=O)NC(CC1CC1)C(=O)C(=O)NCC(=O)N[C@H](C(=O)N(C)C)c1ccccc1)C2(C)C)C(C)(C)C)C(=O)OCc1ccccc1,,,,,,EC90,replicon,0.4 µM
COc1cc([C@H]2O[C@@H](c3cc(OC)c4c(c3)OCO4)[C@@H](C)[C@@H]2C)cc2c1OCO2,25 µM,Subgenomic replicon S52,Huh7.5,,P1220S D1430H S2204I,inhibition,luciferase,86%
CC1(C)CC[C@@]2(C(=O)NCc3cn(Cc4ccccc4)nn3)C(C1)C1=CCC3[C@@]4(C)CC[C@H](O)C(C)(C)C4CC[C@@]3(C)[C@]1(C)C[C@H]2O,5 µM,,Huh7,,,inhibition,luciferase / entry,2.7%
NC(=S)Nc1cccc(OCCCCCOc2ccc(F)cc2)c1,,,Ava5-EG(delta4AB)SEAP,,,EC50,reporter gene / fluorescence,0.001–1 µM
COc1cc(Cn2cc(CNC(=O)[C@]34CCC(C)(C)CC3C3=CCC5[C@@]6(C)CC[C@H](O)C(C)(C)C6CC[C@@]5(C)[C@]3(C)C[C@H]4O)nn2)c(OC)cc1Cn1cc(CNC(=O)[C@]23CCC(C)(C)CC2C2=CCC4[C@@]5(C)CC[C@H](O)C(C)(C)C5CC[C@@]4(C)[C@]2(C)C[C@H]3O)nn1,1 µM,,Huh7,,,inhibition,luciferase / entry,68.5%
COc1ncnc2c1ccn2[C@H]1O[C@H](CO)[C@@H](O)[C@@]1(C)F,,,CEM,,,EC90,replicon,>10 µM
NC(=S)Nc1cccc(OCCCCCOc2ccc(C(F)(F)F)cc2)c1,,,Ava5-EG(delta4AB)SEAP,,,EC50,reporter gene / fluorescence,0.001–1 µM
CC1(C)CC[C@@]2(C(=O)NCc3cn(Cc4ccc(Cn5cc(CNC(=O)[C@]67CCC(C)(C)CC6C6=CCC8[C@@]9(C)CC[C@H](O)C(C)(C)C9CC[C@@]8(C)[C@]6(C)C[C@H]7O)nn5)cc4)nn3)C(C1)C1=CCC3[C@@]4(C)CC[C@H](O)C(C)(C)C4CC[C@@]3(C)[C@]1(C)C[C@H]2O,5 µM,,Huh7,,,inhibition,luciferase / entry,90.7%
CC(C)CC(NC(=O)N[C@H](C(=O)N1C[C@H]2C([C@H]1C(=O)NC(CC1CC1)C(=O)C(N)=O)C2(C)C)C(C)(C)C)C(=O)OCc1ccccc1,,,,,,EC90,replicon,0.5 µM
CC1(C)CC[C@@]2(C(=O)NCc3cn(CC(CO)(Cn4cc(CNC(=O)[C@]56CCC(C)(C)CC5C5=CCC7[C@@]8(C)CC[C@H](O)C(C)(C)C8CC[C@@]7(C)[C@]5(C)C[C@H]6O)nn4)Cn4cc[n+](CNC(=O)[C@]56CCC(C)(C)CC5C5=CCC7[C@@]8(C)CC[C@H](O)C(C)(C)C8CC[C@@]7(C)[C@]5(C)C[C@H]6O)n4)nn3)C(C1)C1=CCC3[C@@]4(C)CC[C@H](O)C(C)(C)C4CC[C@@]3(C)[C@]1(C)C[C@H]2O,5 µM,,Huh7,,,inhibition,luciferase / entry,52.7%
CC1(C)CC[C@]2(C(=O)O)[C@H](O)C[C@]3(C)C(=CC[C@@H]4[C@@]5(C)CC[C@H](O)C(C)(C)[C@@H]5CC[C@]43C)[C@@H]2C1,1 µM,,Huh7,,,inhibition,luciferase / entry,27.5%
CC(C)(C)C(=O)OCOP(=O)(CC[C@H]1O[C@@H](n2cnc3c(=O)[nH]c(N)nc32)[C@](C)(F)[C@@H]1O)OCOC(=O)C(C)(C)C,,,Huh7,,,EC90,PCR,>10 µM
CCOC(=O)[C@H](C)NP(=O)(OC[C@H]1O[C@@H](n2ccc3c(N)nc(N)nc32)[C@](C)(F)[C@@H]1O)Oc1ccccc1,,,CEM,,,EC90,replicon,>10 µM
CC(=O)OC[C@]12[C@H](OC(C)=O)[C@H](OCc3ccccc3)[C@@H]3[C@@H](OC(C)=O)[C@@]14O[C@@]3(C)COC(=O)c1cccnc1C(C)C(C)C(=O)O[C@@H]([C@H](OC(C)=O)[C@@H]2OC(C)=O)[C@]4(C)O,50 µM,Subgenomic replicon JFH-1,Huh7.5,,,inhibition,luciferase,100%
O=C(Nc1cccc(-c2cccc(F)c2)c1)C1CCN(Cc2cccc3cccnc23)CC1,5 µM,JFH-1,Huh7,,,inhibition,PCR,≥40%
Cc1cnc(C(=O)N2c3cccc(O)c3NC3=C(C(=O)CC(C)(C)C3)[C@@H]2c2ccc(OCc3ccccc3)cc2F)cn1,,1b,,,,EC50,luciferase / reporter gene / replicon,0.47 µM
COC(=O)[C@H](C)NP(=O)(OC[C@H]1O[C@@H](n2ccc(=O)[nH]c2=O)[C@](C)(F)[C@@H]1O)Oc1ccccc1,,S282T mutant,,,,EC90,replicon / PCR,34.7 µM
CC1(C)CC(=O)C2=C(C1)Nc1c(O)cccc1N(C(=O)CCC(=O)NC1CCCC1O)C2c1ccc(OCc2ccccc2)cc1Cl,,1b,,,,EC50,luciferase / reporter gene / replicon,28.92 µM
COc1c(-c2ccc3cc(NS(C)(=O)=O)ccc3c2)cc(-n2ccc(=O)[nH]c2=O)cc1C(C)(C)C,,genotype 1b Con1,Huh7,,,EC50,luciferase,0.00059 µM

The last 3 rows once more:

SMILES | tested at | strain | cell line | conditions | mutations | measure | method | result
COC(=O)[C@H](C)NP(=O)(OC[C@H]1O[C@@H](n2ccc(=O)[nH]c2=O)[C@](C)(F)[C@@H]1O)Oc1ccccc1 |  | S282T mutant |  |  |  | EC90 | replicon / PCR | 34.7 µM
CC1(C)CC(=O)C2=C(C1)Nc1c(O)cccc1N(C(=O)CCC(=O)NC1CCCC1O)C2c1ccc(OCc2ccccc2)cc1Cl |  | 1b |  |  |  | EC50 | luciferase / reporter gene / replicon | 28.92 µM
COc1c(-c2ccc3cc(NS(C)(=O)=O)ccc3c2)cc(-n2ccc(=O)[nH]c2=O)cc1C(C)(C)C |  | genotype 1b Con1 | Huh7 |  |  | EC50 | luciferase | 0.00059 µM

a–b is a range or a potency band. Blank or dashed fields: not listed here. ECn: concentration that inhibits the pathogen or its effect by n%. Fold resistance: result on the changed form divided by that on wild type. Percent inhibition refers to the dose given; in toxicity tests it is the harm to the cells.